The record followed here is US20120122128A1 (ALLERGAN, published 2012).

Protein sequences, listed by entry. Tags and fused reporters are not part of them. Residues count along the entry.
UniProt P60881, 1-197 limits assumed: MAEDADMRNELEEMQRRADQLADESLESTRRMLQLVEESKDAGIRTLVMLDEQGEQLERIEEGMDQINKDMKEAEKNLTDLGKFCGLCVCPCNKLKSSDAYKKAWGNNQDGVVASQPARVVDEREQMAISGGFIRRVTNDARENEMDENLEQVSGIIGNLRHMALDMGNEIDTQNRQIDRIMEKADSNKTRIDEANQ

For experiment [1], the target named is T1, SNAP-25197 cleavage product in PC12 cells (rat (PC12 cell line), UniProt P60881 1-197). Nature of the experiment: immunocytochemistry of PC12 cells +/- GFP-BoNT/A-LC, ascites 1:10.
Experiment [2] has as its target T1, SNAP-25197 cleavage product in PC12 …. As to the kind of experiment: cell-based cleavage assay, Western blot, ascites. Background: In western blotting, separated proteins are transferred to a membrane and probed.

B1: α-SNAP-25 monoclonal antibody 1D3B8 (antibody, V domains shown)
VH: VKLQESGAELVKPGASVKISCKASGYIFTDHALHWVRQKPEQGLEWIGYIFPGNGNIEYNEKFKGKATLTADKSSSTAYMQLNSLTSGDSAMYFCKKMDYWGQGTTVTVSS
VL: DVLMTQTPLSLPVSLGDQASISCRSSQSIVHSNGNTYLEWYLQKPGQSPKLLIYKVSNRFSGVPDRFSGSGSGTDFTLKISRVEAEDLGVYYCFQGSHVPPTFGAGTKLELKR
Turning to B1, the binding result in experiment [1] was “binds”.

B2: α-SNAP-25 monoclonal antibody 3C3E2 (antibody, V domains shown)
VH: QVQLQESGPELVKPGASVKMSCKASGYTFTNYVIHWVKQKPGQGLEWIGYINPYNDGSKYNEKFKGKASLTSDKSSSTAYMELSSLTSEDSAVYYCARHLANTYYYFDYWGQGTTLTVSS
VL: DVVLTQSPATLSVTPGDRVSLSCRASQNIGNYLHWYQQKSHESPRLLIKYASQSISGIPSRFSGSGSVTDFTLNINSVETEDFGMYFCQQSDTWPLTFGAGTKLELKR
In the case of B2, in experiment [2], the binding result is recorded as “binds”.
